Data taken from paper PMC8694051 (Proceedings of the National Academy of Sciences of the …, 2021).
Where two headings read alike, the source gives them in different places. Residues, ends and D or L forms follow the SMILES beside them. *: point of attachment. AMC = Cc1cc(=O)oc2cc(N*)ccc12; Boc = CC(C)(C)OC(=O)*

Amino acid sequences for entries named in this document (tags omitted). Residues count along the entry.
UniProt O15393, 106-492: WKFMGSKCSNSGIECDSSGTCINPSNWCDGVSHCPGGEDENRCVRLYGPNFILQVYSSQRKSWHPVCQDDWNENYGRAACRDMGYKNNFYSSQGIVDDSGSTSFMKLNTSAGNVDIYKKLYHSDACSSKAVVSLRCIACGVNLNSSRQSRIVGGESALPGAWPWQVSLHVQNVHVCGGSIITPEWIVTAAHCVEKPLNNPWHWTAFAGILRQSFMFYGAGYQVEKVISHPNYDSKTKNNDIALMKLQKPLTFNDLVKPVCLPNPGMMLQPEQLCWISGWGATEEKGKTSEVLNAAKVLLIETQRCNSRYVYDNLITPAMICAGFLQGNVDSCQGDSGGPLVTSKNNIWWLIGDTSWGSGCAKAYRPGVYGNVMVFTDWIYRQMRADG

Experiments:
[1] = biological target: T1, Recombinant human TMPRSS2 (Homo sapiens, UniProt O15393); details: for IC50: read-out: TMPRSS2 IC50, full-length recombinant TMPRSS2 3 nM, Boc-QAR-AMC, 30-min preincubation
[2] = biological target: T1, Recombinant human TMPRSS2; test: biochemical

Row | Compound | IC50 [1] [nM] | also measured
1 | Cc1cc(=O)oc2cc(NC(=O)[C@H](CCCNC(=N)N)NC(=O)[C@H](C)NC(=O)[C@H](CCC(N)=O)NC(=O)OC(C)(C)C)ccc12 [Boc-QAR-AMC, reference compound] (Boc-Gln-Ala-Arg-{AMC}) |  | Km [1]: 85.6 µM
2 | CC(=O)NC(CO)C(=O)NC(CCCCN)C(=O)NC(CC(C)C)C(=O)NC(CCCNC(=N)N)C(=O)c1nc2ccccc2s1 (stereo not shown) [Compound 3, Ac-SKLR-kbt] |  | IC50 [2]: 39 nM
3 | CC(=O)N[C@@H](Cc1c[nH]c2ccccc12)C(=O)N[C@@H](Cc1ccccc1)C(=O)N[C@@H](CCCNC(=N)N)C(=O)c1nc2ccccc2s1 [Compound 8, Ac-WFR-kbt] | 9.4 | 
4 | CC(=O)N[C@@H](CO)C(=O)N[C@@H](CCCCN)C(=O)N[C@@H](Cc1ccccc1)C(=O)N[C@@H](CCCNC(=N)N)C(=O)c1nccs1 [Compound 9, Ac-SKFR-kt] | 7.9 | 
5 | CC(=O)N[C@@H](CCCCN)C(=O)N[C@@H](CCC(N)=O)C(=O)N[C@@H](Cc1ccccc1)C(=O)N[C@@H](CCCNC(=N)N)C(=O)c1nccs1 [Compound 10, Ac-KQFR-kt] | 29 | 
6 | CC(=O)N[C@@H](CO)C(=O)N[C@@H](CCC(N)=O)C(=O)N[C@@H](CC(C)C)C(=O)N[C@@H](CCCNC(=N)N)C(=O)c1nccs1 [Compound 11, Ac-SQLR-kt] | 16 | 
7 | CC(=O)N[C@@H](Cc1ccccc1)C(=O)N[C@@H](CC(C)C)C(=O)N[C@@H](Cc1ccccc1)C(=O)N[C@@H](CCCNC(=N)N)C(=O)c1nc2ccccc2s1 [Compound 12, Ac-FLFR-kbt] | 3 | 
8 | CC(=O)N[C@H](Cc1c[nH]c2ccccc12)C(=O)N[C@@H](Cc1ccccc1)C(=O)N[C@@H](CCCNC(=N)N)C(=O)c1nc2ccccc2s1 [Compound 13, Ac-dWFR-kbt] | 1.1 | 
9 | N=C(N)NCCC[C@H](NC(=O)[C@H](Cc1ccccc1)NC(=O)[C@H](N)Cc1c[nH]c2ccccc12)C(=O)c1nc2ccccc2s1 [Compound 14, dWFR-kbt] | 39 | 
10 | CC(=O)N[C@@H](CC(C)C)C(=O)N[C@@H](CC(C)C)C(=O)N[C@@H](CCCNC(=N)N)C(=O)c1nccs1 [Compound 18, Ac-LLR-kt] | 54 | 
11 | Cyclo(DMK)R-kbt [Compound 19] | 19 | 
12 | Cyclo(allylGLY)R-kbt [Compound 21] | 197 | 
13 | dWFR-kbt-CO2H [Compound 15] | 42 | 
